Pooled drug test results. Numbers come from NIAID ChemDB, via PubChem.

All rows: tests on isolated targets

Percent inhibition refers to the dose given; in toxicity tests it is the harm to the cells.

SMILES	dose	read by	strain	read-out	mutations	target	organism	result
Cc1[nH]nc2c1C(c1cc(C#N)cc(N3CCOCC3)c1)(C1CCC1)C(C#N)=C(N)O2		absorbance		Ki		Serine hydroxymethyltransferase	Plasmodium falciparum	0.284 µM
CCN(CC)C(=O)c1c(OC)cccc1-c1ccc(C=C2SC(=S)N(c3ccc(C(=O)O)cc3)C2=O)o1				IC50		NS5 polymerase	Bovine viral diarrhea virus	≤1 µM
COc1ccc(-c2cc(-c3ccc(Cl)cc3Cl)nc3cc(C(=O)O)nn23)cc1				IC50		RNA-dependent RNA polymerase	Hepatitis C virus	>10 µM
O=C(O)CCN1C(=O)C(=Cc2ccc(-c3ccc(Cl)c(Cl)c3)o2)SC1=S				IC50		NS5 polymerase	Bovine viral diarrhea virus	≤1 µM
CC(C)CCn1c(Sc2ccc(C#N)c([N+](=O)[O-])c2)nnc1-c1ccc(Cl)cc1				IC50		Thioredoxin reductase	Plasmodium vivax	<4 µM
COc1ccc(N2C(N)=NC(N)=NC2(C)C)c(OC)c1OC				IC50		DHFR	Toxoplasma gondii	1.2 µM
O=C(O)CCN1C(=O)C(=Cc2ccc(-c3cccs3)s2)SC1=S				IC50		NS5 polymerase	Bovine viral diarrhea virus	≤1 µM
Oc1cccc(-c2cncc(N3CCN(c4ccncc4)CC3)n2)c1	1 µM			inhibition		UL97 kinase	Cytomegalovirus	<50%
O=C(O)c1cc2nc(-c3cccc(Cl)c3)cc(-c3ccc(Oc4ccccc4)cc3)n2n1				IC50		RNA-dependent RNA polymerase	Hepatitis C virus	1–10 µM
COC(=O)CCS(=O)(=O)N(C)c1cc(C#N)cc(C2(C(C)C)C(C#N)=C(N)Oc3n[nH]c(C)c32)c1		absorbance		IC50		Serine hydroxymethyltransferase	Plasmodium falciparum	0.45 µM
Cc1cc(C)cc(-c2cncc(N3CCN(c4ccccc4)CC3)n2)c1	10 µM			inhibition		UL97 kinase	Cytomegalovirus	>15%
Cc1ccccc1NC(=O)Nc1cccc(-c2nc(C(=O)O)c(O)c(=O)[nH]2)c1				IC50		HCV polymerase	Hepatitis C virus	<100 µM
O=C(O)c1ccc(N2C(=O)C(=Cc3ccc(-c4c(F)c(F)nc(F)c4F)o3)SC2=S)cc1				IC50		NS5 polymerase	Bovine viral diarrhea virus	≤1 µM
COc1cc(COc2ccc(-c3cnc4c(-c5nn[nH]n5)cnn4c3C3CCCCC3)cc2)cc(OC)c1				IC50		RNA-dependent RNA polymerase	Hepatitis C virus	1–10 µM
O=C(O)CCN1C(=O)C(=Cc2ccc(-c3ccco3)o2)SC1=S				IC50		NS5 polymerase	Bovine viral diarrhea virus	≤1 µM
O=C(Nc1cc(-c2ccc(C(F)(F)F)cc2)nc2cc(C(=O)O)nn12)c1ccc(Cl)cc1				IC50		RNA-dependent RNA polymerase	Hepatitis C virus	>10 µM
COc1ccc(CCC(=O)Nc2cccc(-c3nc(C(=O)O)c(O)c(=O)[nH]3)c2)cc1OC				IC50		HCV polymerase	Hepatitis C virus	<100 µM
NNC(=O)c1ccncc1	1000 µM		H37Rv	inhibition		NADH oxidase	Mycobacterium tuberculosis	0%
O=C(c1ccc([N+](=O)[O-])o1)N1CCN(c2nc3c(F)cc(F)cc3s2)CC1				IC50		Thioredoxin reductase	Plasmodium vivax	<4 µM
CCOC(=O)c1cnn2c(C3CCCCC3)c(-c3ccc(OCc4ccccc4)cc3)cnc12				IC50		RNA-dependent RNA polymerase	Hepatitis C virus	>10 µM
Cc1cccc(-c2cncc(N3CCN(c4cnccn4)CC3)n2)c1	1 µM			inhibition		UL97 kinase	Cytomegalovirus	<50%
O=C(O)c1nc(-c2ccccc2COc2ccccc2)[nH]c(=O)c1O				IC50		HCV polymerase	Hepatitis C virus	<100 µM
COCC1=NO[C@H]2[C@@H]3OC(C)(C)O[C@@H]3O[C@@H]12				IC50		Beta-galactosidase	Aspergillus niger	>1000 µM
Cc1cn([C@@H]2O[C@H](COP(=O)(O)OP(=O)(O)OP(=O)(O)O)[C@@H](O)[C@@H]2F)c(=O)[nH]c1=O				Ki		DNA polymerase	Epstein-Barr virus	0.08 µM
CC(=O)Nc1ccc(C(=O)O)cc1	1000 µM		RH	inhibition		DHPS	Toxoplasma gondii	92.8%
O=C(O)c1cc2nc(-c3ccc(F)cc3)cc(-c3ccc(Oc4ccccc4)cc3)n2n1				IC50		RNA-dependent RNA polymerase	Hepatitis C virus	>10 µM
CCOC(=O)COc1cccc(-c2cc(Cl)cc(C3(C4CCC4)C(C#N)=C(N)Oc4n[nH]c(C)c43)c2)c1		absorbance		Ki		Serine hydroxymethyltransferase	Plasmodium falciparum	0.198 µM
CO[C@H](C(=O)NO)[C@@H](CC(C)C)C(=O)N[C@H](C(=O)OC1CCCC1)c1ccccc1		fluorescence		IC50		PfM1AAP	Plasmodium falciparum	0.075 µM
CC(C)C(=O)N[C@H]1C([C@H](C)[C@@H](O)CO)OC(C(=O)O)=C[C@@H]1N=[N+]=[N-]			TYPE 1	IC50		Neuraminidase	Parainfluenza virus	0.04 µM
COc1ccc(-c2ccc(C=C3SC(=S)N(c4ccc(C(=O)O)cc4)C3=O)o2)cc1				IC50		NS5 polymerase	Bovine viral diarrhea virus	≤1 µM
CCOC(OCC)C1=NO[C@H]2[C@H](O)C(O)O[C@@H]12				IC50		Beta-galactosidase	Aspergillus niger	>1000 µM
CCCCCCCCCCCC1(C)N=C(N)N=C(N)N1c1ccc(Cl)cc1				IC50		DHFR	Pneumocystis carinii	20.4 µM
CC(C)Cn1c(Sc2ccc(C#N)c([N+](=O)[O-])c2)nnc1-c1ccccc1Cl				IC50		Thioredoxin reductase	Plasmodium berghei	<4 µM
O=C(O)c1ccc(N2C(=O)C(=Cc3ccc(-c4cc(C(F)(F)F)ccc4Cl)o3)SC2=S)cc1Cl				IC50		NS5 polymerase	Bovine viral diarrhea virus	≤1 µM
COc1ccccc1-c1cc(-c2ccc(Cl)cc2)n2nc(C(=O)O)cc2n1				IC50		RNA-dependent RNA polymerase	Hepatitis C virus	>10 µM
CC1(C)S[C@@H]2[C@H](NC(=O)Cc3ccccc3)C(=O)N2[C@H]1C(=O)O			J24 (quinolone- penicillin-sensitive)	IC50		DNA gyrase	Streptococcus pneumoniae	>200 µg/mL
N[C@@H](CS)C(=O)N[C@@H](Cc1ccccc1)C(=O)N1CCC[C@H]1C(=O)N[C@@H](Cc1c[nH]c2ccccc12)C(=O)NCC(=O)N[C@@H](CS)C(=O)O				IC50		Polymerase	Respiratory syncytial virus	>150 µM
O=C(O)CCN1C(=O)C(=Cc2ccc(-c3cccs3)o2)SC1=S				IC50		NS5 polymerase	Bovine viral diarrhea virus	≤1 µM
Cc1cccc(N2CCN(c3cncc(-c4cc5ccccc5s4)n3)CC2)c1C	10 µM			inhibition		UL97 kinase	Cytomegalovirus	>15%
O=C(O)c1cc2nc(-c3ccc(Cl)cc3)cc(NCc3ccccc3Cl)n2n1				IC50		RNA-dependent RNA polymerase	Hepatitis C virus	>10 µM
Cc1[nH]nc2c1C(c1cc(C#N)cc(N3CCCC3=O)c1)(C1CCC1)C(C#N)=C(N)O2		absorbance		Ki		Serine hydroxymethyltransferase	Plasmodium falciparum	0.586 µM
O=C(O)c1nc(-c2ccccc2NS(=O)(=O)c2cc(Cl)ccc2Cl)[nH]c(=O)c1O				IC50		HCV polymerase	Hepatitis C virus	<100 µM
Clc1cc(CN2CCCNCCNCCCNCC2)cc(Cl)n1				IC50	CXCR4-H203A	CXCR4		2.47 µM
Cc1cn([C@@H]2O[C@H](COP(=O)(O)OP(=O)(O)OP(=O)(O)O)[C@@H](O)[C@@H]2F)c(=O)nc1N				Ki		DNA polymerase	Epstein-Barr virus	0.9 µM
O=C(O)c1nc(-c2sccc2NC(=O)C(Cc2ccccc2)c2ccccc2)[nH]c(=O)c1O				IC50		HCV polymerase	Hepatitis C virus	<25 µM
Cc1cccc2nc(N)nc(N)c12				IC50		DHFR	Toxoplasma gondii	4.98 µM
Fc1ccc(-c2cncc(N3CCN(c4cccc(Cl)c4)CC3)n2)cc1	1 µM			inhibition		UL97 kinase	Cytomegalovirus	<50%
Nc1nc(N)c2nc3c(ccc4ccccc43)nc2n1				IC50		DHFR	Pneumocystis carinii	18.4 µM
CC(=O)c1ccc(N2CCN(c3cncc(-c4ccc(C)cc4)n3)CC2)cc1				IC50		UL97 kinase	Cytomegalovirus	<10 µM
O=C(NCCCc1ccccc1)Nc1ccccc1-c1nc(C(=O)O)c(O)c(=O)[nH]1				IC50		HCV polymerase	Hepatitis C virus	<100 µM
Fc1cccc(-c2cncc(N3CCN(c4ccc(F)cc4F)CC3)n2)c1	10 µM			inhibition		UL97 kinase	Cytomegalovirus	>15%
COc1cc(OC)cc(N2C(N)=NC(N)=NC2(C)C)c1				IC50		DHFR	Toxoplasma gondii	16.4 µM
Cc1cccc(-c2cncc(N3CCN(c4ccc(Cl)cc4)CC3)n2)c1				IC50		UL97 kinase	Cytomegalovirus	<100 µM
Nc1nc(N)c2nc(Cc3ccc(Cl)cc3)c(Cc3ccc(Cl)cc3)nc2n1				IC50		DHFR	Toxoplasma gondii	2.5 µM

Repeating the final 7 entries:

{"SMILES": "Nc1nc(N)c2nc3c(ccc4ccccc43)nc2n1", "read-out": "IC50", "target": "DHFR", "organism": "Pneumocystis carinii", "result": "18.4 µM"}
{"SMILES": "CC(=O)c1ccc(N2CCN(c3cncc(-c4ccc(C)cc4)n3)CC2)cc1", "read-out": "IC50", "target": "UL97 kinase", "organism": "Cytomegalovirus", "result": "<10 µM"}
{"SMILES": "O=C(NCCCc1ccccc1)Nc1ccccc1-c1nc(C(=O)O)c(O)c(=O)[nH]1", "read-out": "IC50", "target": "HCV polymerase", "organism": "Hepatitis C virus", "result": "<100 µM"}
{"SMILES": "Fc1cccc(-c2cncc(N3CCN(c4ccc(F)cc4F)CC3)n2)c1", "dose": "10 µM", "read-out": "inhibition", "target": "UL97 kinase", "organism": "Cytomegalovirus", "result": ">15%"}
{"SMILES": "COc1cc(OC)cc(N2C(N)=NC(N)=NC2(C)C)c1", "read-out": "IC50", "target": "DHFR", "organism": "Toxoplasma gondii", "result": "16.4 µM"}
{"SMILES": "Cc1cccc(-c2cncc(N3CCN(c4ccc(Cl)cc4)CC3)n2)c1", "read-out": "IC50", "target": "UL97 kinase", "organism": "Cytomegalovirus", "result": "<100 µM"}
{"SMILES": "Nc1nc(N)c2nc(Cc3ccc(Cl)cc3)c(Cc3ccc(Cl)cc3)nc2n1", "read-out": "IC50", "target": "DHFR", "organism": "Toxoplasma gondii", "result": "2.5 µM"}

ICn: concentration for n% inhibition. Two numbers with a dash give a range or band. Neighbouring rows are from separate reports. An empty or dashed field is not shown.